Among the data in patent US20070243170A1 (UNIVERSITY OF CHICAGO, published 2007) are fold decrease in R5181 virus yield from J1.1 cells exposed to the highest concentration of scuPA, against untreated cells values, retold here.

The target of this experiment is endogenous hamster uPAR on J1.1 cells (hamster). The experiment is described as follows: cell-based or functional assay.

In turn, “human single chain uPA (scuPA), American Diagnostics Inc. (from UniProt P00749 21-431) (ligand)” came in with a fold decrease in R5181 virus yield from J1.1 cells exposed to the highest concentration of scuPA, against untreated cells of 10 fold.
